Results deposited as PubChem BioAssay AID1224833 (University of Georgia, 2016)

Assay: 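Human genes whose knock-down alters rotavirus replication in monkey cells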 (primary screen)
Cell system: monkey MA104 kidney cells
Reagents: siRNA pool against human genes, 50 nM
Timing: 48 h knock-down before infection; read 24 h after infection
Conditions: infection with rotavirus strain RV3 two days after transfection; infectious dose for this stage not given
Measurement: 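Rotavirus antigen per well by fluorescent immunoassay, normalised to non-targeting control wells on each plate and given as a standard z-score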
Reading the numbers: z-score vs non-targeting control: higher = more rotavirus replication than with non-targeting control
Active means: In these data the active calls have z-score vs non-targeting control at about -1 or lower, or at about 1 or higher
Calls: active = z-score beyond 1 either way; inactive = z-score within 1 of zero
Shown is a random part of about 12,000 deposited reagents. About 5,600 of all reagents (46%) were called active. 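Active calls cover z-scores past 1 in both directions, so they include lowered as well as raised rotavirus replication.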

Gene | z-score vs non-targeting control | outcome
PRIM1 (GeneID 5557) | 1.01 | active
KIAA1755 (GeneID 85449) | -2.78 | active
OR13J1 (GeneID 392309) | -1.19 | active
TIPIN (GeneID 54962) | -1.78 | active
ASTE1 (GeneID 28990) | -0.488 | inactive
SLC30A1 (GeneID 7779) | -0.721 | inactive
ST8SIA6 (GeneID 338596) | -1.34 | active
WBP2 (GeneID 23558) | -1.19 | active
AADACL2 (GeneID 344752) | -1.71 | active
OR4C12 (GeneID 283093) | -1.5 | active
TPSAB1 (GeneID 7177) | -1.37 | active
ZNF155 (GeneID 7711) | 0.0272 | inactive
WNT8B (GeneID 7479) | 0.263 | inactive
CHCHD2 (GeneID 51142) | -0.362 | inactive
OR8H2 (GeneID 390151) | 0.0669 | inactive
SPATS2 (GeneID 65244) | -0.675 | inactive
OR4F3 (GeneID 26683) | -0.306 | inactive
MBD2 (GeneID 8932) | -0.791 | inactive
SPIB (GeneID 6689) | -2.28 | active
SLC22A14 (GeneID 9389) | 2.47 | active
KRTAP4-12 (GeneID 83755) | -0.038 | inactive
MYL10 (GeneID 93408) | -0.592 | inactive
SNAPC3 (GeneID 6619) | 0.584 | inactive
TBCB (GeneID 1155) | 0.624 | inactive
GPT2 (GeneID 84706) | -0.737 | inactive
FASN (GeneID 2194) | -0.57 | inactive
CEP15 (GeneID 57415) | -0.139 | inactive
PLXNA3 (GeneID 55558) | 1.34 | active
POLB (GeneID 5423) | -0.832 | inactive
BRWD1 (GeneID 54014) | -1.35 | active
PRSS2 (GeneID 5645) | 0.777 | inactive
AFF3 (GeneID 3899) | -0.429 | inactive
NEDD8 (GeneID 4738) | -0.941 | inactive
COL15A1 (GeneID 1306) | 0.296 | inactive
OR13H1 (GeneID 347468) | -1.05 | active
MCM9 (GeneID 254394) | -0.291 | inactive
ZNF606 (GeneID 80095) | -0.705 | inactive
ZDHHC2 (GeneID 51201) | 1.2 | active
OR52D1 (GeneID 390066) | -1.56 | active
EPB41L5 (GeneID 57669) | -1.32 | active
CMTM6 (GeneID 54918) | -1.4 | active
TACSTD2 (GeneID 4070) | 0.178 | inactive
CCDC178 (GeneID 374864) | -0.814 | inactive
CHCHD10 (GeneID 400916) | -1.17 | active
PRSS55 (GeneID 203074) | 0.285 | inactive
FAM161B (GeneID 145483) | 0.0732 | inactive
IDO1 (GeneID 3620) | -2.23 | active
DOCK2 (GeneID 1794) | -1.06 | active
FGFBP1 (GeneID 9982) | 1.58 | active
RPSA (GeneID 3921) | -1.83 | active
ORMDL3 (GeneID 94103) | 0.209 | inactive
PPP1R17 (GeneID 10842) | 0.0619 | inactive
ENTPD4 (GeneID 9583) | -1.84 | active
ETHE1 (GeneID 23474) | -0.19 | inactive
ZNF623 (GeneID 9831) | 1.16 | active
LYRM4 (GeneID 57128) | 1.7 | active
ALB (GeneID 213) | -2.34 | active
MYBPH (GeneID 4608) | 0.368 | inactive
MYBPC1 (GeneID 4604) | 1.85 | active
PPP6R2 (GeneID 9701) | 0.194 | inactive
GMEB2 (GeneID 26205) | -0.846 | inactive
MYBPC2 (GeneID 4606) | -1.1 | active
GJA5 (GeneID 2702) | -1.46 | active
CDY1B (GeneID 253175) | -0.154 | inactive

Next part (12 carried over from the part before).
Gene | z-score vs non-targeting control | outcome
ENTPD4 (GeneID 9583) | -1.84 | active
ETHE1 (GeneID 23474) | -0.19 | inactive
ZNF623 (GeneID 9831) | 1.16 | active
LYRM4 (GeneID 57128) | 1.7 | active
ALB (GeneID 213) | -2.34 | active
MYBPH (GeneID 4608) | 0.368 | inactive
MYBPC1 (GeneID 4604) | 1.85 | active
PPP6R2 (GeneID 9701) | 0.194 | inactive
GMEB2 (GeneID 26205) | -0.846 | inactive
MYBPC2 (GeneID 4606) | -1.1 | active
GJA5 (GeneID 2702) | -1.46 | active
CDY1B (GeneID 253175) | -0.154 | inactive
SIGLEC10 (GeneID 89790) | -1.48 | active
NLRP12 (GeneID 91662) | 0.674 | inactive
ZNF792 (GeneID 126375) | 0.492 | inactive
ZSWIM7 (GeneID 125150) | -0.0944 | inactive
RNMT (GeneID 8731) | 1.42 | active
SLC6A11 (GeneID 6538) | -2.3 | active
ADAMTS20 (GeneID 80070) | 0.697 | inactive
MTHFSD (GeneID 64779) | -1.33 | active
KRTAP4-1 (GeneID 85285) | -1.26 | active
BRI3 (GeneID 25798) | 0.0263 | inactive
MFF (GeneID 56947) | -1.21 | active
TSLIG3A (GeneID 25940) | 2.17 | active
TENT5D (GeneID 169966) | -0.779 | inactive
CFHR4 (GeneID 10877) | -1.33 | active
NFIX (GeneID 4784) | -0.504 | inactive
PAGE1 (GeneID 8712) | -0.292 | inactive
SERPINB9 (GeneID 5272) | 0.544 | inactive
DND1 (GeneID 373863) | 0.383 | inactive
RALY (GeneID 22913) | -0.484 | inactive
CHST1 (GeneID 8534) | -0.863 | inactive
ZDHHC12 (GeneID 84885) | -0.699 | inactive
SPMIP8 (GeneID 374739) | -1.55 | active
RNF167 (GeneID 26001) | -0.622 | inactive
KBTBD4 (GeneID 55709) | -0.118 | inactive
TMEM74B (GeneID 55321) | 1.64 | active
NFKBID (GeneID 84807) | -0.967 | inactive
COMMD8 (GeneID 54951) | -1.3 | active
TTC32 (GeneID 130502) | 1.54 | active
PPIF (GeneID 10105) | -1.1 | active
BDH1 (GeneID 622) | -1.25 | active
ALDH8A1 (GeneID 64577) | -0.773 | inactive
PNRC2 (GeneID 55629) | -0.0015 | inactive
ACOT4 (GeneID 122970) | -0.222 | inactive
CARS2 (GeneID 79587) | 1.6 | active
LSMEM1 (GeneID 286006) | -0.918 | inactive
COL5A2 (GeneID 1290) | -0.184 | inactive
REDIC1 (GeneID 283461) | 1.46 | active
CNN1 (GeneID 1264) | -0.244 | inactive
TSC22D2 (GeneID 9819) | -0.954 | inactive
RPH3AL (GeneID 9501) | -0.674 | inactive
TP53TG5 (GeneID 27296) | -0.512 | inactive
PFDN2 (GeneID 5202) | -0.355 | inactive
ZNF146 (GeneID 7705) | -1.87 | active
SERPINA3 (GeneID 12) | 1.17 | active
HSP90B1 (GeneID 7184) | -0.597 | inactive
MAP1LC3C (GeneID 440738) | 0.958 | inactive
